Results from patent US20210252150A1 (VANDERBILT UNIVERSITY, published 2021).

Key:
[1] = target: T1, HA of A/Fort Monthouth/1947 (H1N1) (influenza A virus (H1N1)); experiment: ELISA (highest dilution tested 1/50,000)
[2] = target: T2, HA of A/Vietnam/1203/2004 (H5N1) (influenza A virus (H5N1)); experiment: ELISA (highest dilution tested 1/50,000)
[3] = target: T3, HA of A/Indonesia/5/2005 (H5N1) (influenza A virus (H5N1)); experiment: ELISA (highest dilution tested 1/50,000)
[4] = target: T4, HA of A/chicken/Germany/N/1948 (H10N7) (influenza A virus (H10N7)); experiment: Octet (BLI) with HA
[5] = target: T5, HA of A/mallard duck/Astrakhan/263/1982 (H14N5) (influenza A virus (H14N5)); experiment: Octet (BLI) with HA
[6] = target: T6, HA of A/Netherlands/219/2003 (H7N7) (influenza A virus (H7N7)); experiment: Octet (BLI) with HA
[7] = target: T2, HA of A/Vietnam/1203/2004 (H5N1); experiment: Octet (BLI) with HA
[8] = target: T7, HA of A/duck/Alberta/60/1976 (H12N5) (influenza A virus (H12N5), UniProt P03446 17-530); experiment: Octet (BLI) with HA
[9] = target: T8, HA of A/Solomon Islands/03/2006 (H1N1) (influenza A virus (H1N1)); experiment: ELISA, recombinant HA
T8 construct: extracellular domain

[10] = target: T4, HA of A/chicken/Germany/N/1948 (H10N7); experiment: ELISA, recombinant HA
[11] = target: T9, HA of A/Texas/50/2012 (H3N2) (influenza A virus (H3N2)); experiment: ELISA, recombinant HA
T9 construct: extracellular domain

[12] = target: T5, HA of A/mallard duck/Astrakhan/263/1982 …; experiment: ELISA, recombinant HA
[13] = target: T1, HA of A/Fort Monthouth/1947 (H1N1); experiment: ELISA, recombinant HA
[14] = target: T6, HA of A/Netherlands/219/2003 (H7N7); experiment: ELISA, recombinant HA
[15] = target: T10, HA of A/Switzerland/9715293/2013 (H3) (influenza A virus (H3)); experiment: ELISA, recombinant HA
T10 construct: extracellular domain

[16] = target: T7, HA of A/duck/Alberta/60/1976 (H12N5); experiment: ELISA, recombinant HA
[17] = target: T11, HA of A/Hong Kong/1073/99 (H9) (influenza A virus (H9)); experiment: ELISA, recombinant HA
[18] = target: T12, HA of A/shearwater/Western Australia/2576/1979 (H15N9) (influenza A virus (H15N9)); experiment: ELISA, recombinant HA
[19] = target: T13, HA of A/Taiwan/2/2013 (H6) (Influenza A virus A/Taiwan/2/2013 (H6)); experiment: ELISA, recombinant HA
[20] = target: T14, HA of A/Texas/36/1991 (H1N1) (influenza A virus (H1N1)); experiment: ELISA, recombinant HA
T14 construct: extracellular domain

[21] = target: HA of A/Shanghai/2/2013 (H7N9) (influenza A virus (H7N9)); experiment: ELISA, recombinant HA
[22] = target: T8, HA of A/Solomon Islands/03/2006 (H1N1); experiment: ELISA, recombinant HA; remark: listed apart in the source
[23] = target: T1, HA of A/Fort Monthouth/1947 (H1N1); experiment: ELISA, recombinant HA; remark: listed apart in the source
[24] = target: T6, HA of A/Netherlands/219/2003 (H7N7); experiment: ELISA, recombinant HA; remark: listed apart in the source
[25] = target: T11, HA of A/Hong Kong/1073/99 (H9); experiment: ELISA, recombinant HA; remark: listed apart in the source
[26] = target: T13, HA of A/Taiwan/2/2013 (H6); experiment: ELISA, recombinant HA; remark: listed apart in the source
[27] = target: T14, HA of A/Texas/36/1991 (H1N1); experiment: ELISA, recombinant HA; remark: listed apart in the source
[28] = target: T9, HA of A/Texas/50/2012 (H3N2); experiment: ELISA
[29] = target: T5, HA of A/mallard duck/Astrakhan/263/1982 …; experiment: ELISA
[30] = target: T11, HA of A/Hong Kong/1073/99 (H9); experiment: ELISA
[31] = target: T12, HA of A/shearwater/Western …; experiment: ELISA
[32] = target: T7, HA of A/duck/Alberta/60/1976 (H12N5); experiment: ELISA
[33] = target: T15, HA of A/Victoria/361/2011 (H3N2) (influenza A virus (H3N2)); experiment: BLI, Fab on immobilized biotinylated HA
T15 construct: extracellular domain

[34] = target: T2, HA of A/Vietnam/1203/2004 (H5N1); experiment: BLI, Fab on immobilized biotinylated HA
[35] = target: T3, HA of A/Indonesia/5/2005 (H5N1); experiment: BLI, Fab on immobilized biotinylated HA

B1: H5.31 (antibody, V domains shown)
VH: EVQLVQSGGGLVQPGGSLRLSCEASRFTSSSYWITWVRQAPGKGLEWVANIKQDGSEKYFVDSVKGRFTISRDNASNSLYLQMSSLRAEDTAVYYCARGFLERLLLGRQGAYYYGMDVWGQGTTVTVSS
VL: DIQMTQSPSSLSASVGDRVTMTCRASQSISSSLNWYQQKPGKAPKLLIYAASNLQSGVPSRFSGSGSGTDFTLTISSLQPEDFATYYCQQSYTMPPELTFGGGTKVQIK
- EC50 [1]: 0.012 µg/mL
- EC50 [2]: 0.006 µg/mL
- EC50 [3]: 27 µg/mL
- Kd [4]: 14 nM
- Kd [5]: 2500 nM
- Kd [6]: 83 nM
- Kd [7]: 3.8 nM
- Kd [8]: 13 nM

B2: UCA (antibody, V domains shown)
VH: QVQLQESGPGLVKPSETLSLTCTVSGGSVSSGSYYWSWIRQPPGKGLEWIGYIYYSGSTNYNPSLKSRVTISVDTSKNQFSLKLSSVTAADTAVYYCARGTEDLGYCSGGSCPNHWGQGTLVTV
VL: not shown
- EC50 [9]: 0.036 µg/mL
- EC50 [10]: 0.361 µg/mL
- EC50 [11]: 1.3 µg/mL
- EC50 [12]: 0.132 µg/mL
- EC50 [13]: 0.039 µg/mL
- EC50 [14]: 0.083 µg/mL
- EC50 [15]: 2.37 µg/mL
- EC50 [16]: 0.067 µg/mL
- EC50 [17]: 0.342 µg/mL
- EC50 [18]: 0.073 µg/mL
- EC50 [19]: 0.831 µg/mL
- EC50 [20]: 0.048 µg/mL
- EC50 [21]: 0.15 µg/mL
- EC50 [22]: 0.01 µg/mL
- EC50 [23]: 0.017 µg/mL
- EC50 [24]: 0.033 µg/mL
- EC50 [25]: 0.052 µg/mL
- EC50 [26]: 0.342 µg/mL
- EC50 [27]: 0.015 µg/mL

B3: H5.28 (antibody, V domains shown)
VH: EVQLVESGGGLVQPGGSLRLSCAASGFTFSTYWMTWVRQAPGKGLEWVANINQDGGEKYFVDSVKGRFTISRDNAKNSLFLQMNTLRAEDTAVYYCARGFLERLLLGRQGAYYYGMDVWGQGTTVTVSS
VL: B1 VL with T20S, S28I, T93S, M94T, Q107E
- EC50 [1]: 0.044 µg/mL
- EC50 [2]: 0.366 µg/mL
- EC50 [3]: 21 µg/mL
- Kd [4]: 85 nM
- Kd [8]: 71 nM

B4: rFluA-20 (recombinant FluA-20 IgG) (antibody, V domains shown)
VH: QVQLQESGPGLVKPSETLSLTCSVSGVSVTSDIYYWTWIRQPPGKGLEWIGYIFYNGDTNYNPSLKSRVTMSIDTSKNEFSLRLTSVTAADTAVYFCARGTEDLGYCSSGSCPNHWGQGTLVTVSS
VL: DIQMTQSPSSLSASIGDRVTITCRPSQNIRSFLNWFQHKPGKAPKLLIYAASNLQSGVPSRFSGSGSGTEFTLTIRSLQPEDFATYYCQQSYNTPPTFGQGTKVEIK
- EC50 [28]: 7 ng/mL
- EC50 [29]: 7 ng/mL
- EC50 [30]: 7 ng/mL
- EC50 [31]: 7 ng/mL

B5: rFluA-20 heavy chain mutant D98A (antibody, V domains shown)
VH: B4 VH with D103A
VL: B4 VL
- binding result [32]: no binding (tested: 10 µg/mL)

B6: rFluA-20 heavy chain mutant E97A (antibody, V domains shown)
VH: B4 VH with E102A
VL: B4 VL
- EC50 [32]: 0.06 µg/mL

B7: rFluA-20 heavy chain mutant T96A (antibody, V domains shown)
VH: B4 VH with T101A
VL: B4 VL
- EC50 [32]: 0.04 µg/mL

B8: rFluA-20 heavy chain mutant Y34A (antibody, V domains shown)
VH: B4 VH with Y34A
VL: B4 VL
- EC50 [32]: 0.05 µg/mL

B9: rFluA-20 heavy chain mutant Y100aA (antibody, V domains shown)
VH: B4 VH with Y106A
VL: B4 VL
- EC50 fold over wild-type rFluA-20 [32]: > 100 fold

B10: rFluA-20 light chain mutant N53A (antibody, V domains shown)
VH: B4 VH
VL: B4 VL with N53A
notes: recombinant IgG
- EC50 [32]: 0.03 µg/mL

B11: rFluA-20 light chain mutant Q55A (antibody, V domains shown)
VH: B4 VH
VL: B4 VL with Q55A
notes: recombinant IgG
- EC50 fold over wild-type rFluA-20 [32]: > 100 fold

B12: rFluA-20 light chain mutant Y49A (antibody, V domains shown)
VH: B4 VH
VL: B4 VL with Y49A
notes: recombinant IgG
- binding result [32]: no binding (tested: 10 µg/mL)

B13: FluA-20 Fab (Fab, V domains shown)
VH: B4 VH
VL: B4 VL
- Kd [33]: 15 nM
- Kd [34]: 122 nM
- Kd [35]: 88 nM

Changes are numbered by the printed parent chain. Names may count otherwise. Read-outs that look alike come from different tables or passages of the source.
